Source: PubChem BioAssay AID624099 (ICCB-Longwood, 2012)
Assay: 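Knock-downs relieving repression by E2 of an HPV18 LCR luciferase reporter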 (primary screen). Cells: human C33A cervical carcinoma cells (HPV-negative) stably expressing BPV1 E2 and an HPV18 LCR luciferase reporter. Knock-down reagent: siRNA pool against human genes, 40 nM. Time to read-out: 72 h. Detection: 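Per-well luciferase luminescence, z-scored on each plate against the plate mean and SD with control wells left out, then averaged across three replicate plates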. Scale: mean z-score and z-score: higher = stronger reporter signal, weaker E2 silencing. Hit rule: 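Mean z ≥ 2 together with z ≥ 2 in two or more of the three replicates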.
Shown is a random part of about 21,000 reagents. 497 of all reagents (2.4%) were called active. 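Higher z means weaker E2 silencing; only reporter increases were scored, and knock-downs that hurt cell survival may mask genuine repressor factors.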

Gene	mean z-score	z-score, replicate A	z-score, replicate B	z-score, replicate C	call
PTPRG (protein tyrosine phosphatase receptor type G)	0.59	0.49	0.23	1.04	inactive
AREL1 (apoptosis resistant E3 ubiquitin protein ligase 1)	-0.56	-0.51	-0.54	-0.63	inactive
MAP7D2 (MAP7 domain containing 2)	-0.73	-0.52	-0.77	-0.9	inactive
IL10 (interleukin 10)	0.11	-0.02	0.21	0.14	inactive
EXOSC4 (exosome component 4)	-0.97	-1.17	-0.92	-0.83	inactive
TM7SF2 (transmembrane 7 superfamily member 2)	0.51	0.2	0.42	0.9	inactive
MAGEA12 (MAGE family member A12)	-0.44	-0.47	-0.68	-0.18	inactive
ATP1A3 (ATPase Na+/K+ transporting subunit alpha 3)	0.19	-0.1	0.25	0.41	inactive
H1-6 (H1.6 linker histone, cluster member)	0.31	0.43	0.12	0.37	inactive
ZNF594 (zinc finger protein 594)	1.46	1.17	1.75	1.46	inactive
CCPG1 (cell cycle progression 1)	0.09	0.07	0.19	0.01	inactive
B9D1 (B9 domain containing 1)	-0.25	-0.45	-0.27	-0.01	inactive
ITGAV (integrin subunit alpha V)	-1.59	-1.35	-1.81	-1.61	inactive
ENPP6 (ectonucleotide pyrophosphatase/phosphodiesterase 6)	0.56	0.95	0.42	0.32	inactive
LRP11 (LDL receptor related protein 11)	-1.09	-0.89	-1.19	-1.18	inactive
SIGLEC10 (sialic acid binding Ig like lectin 10)	-0.46	-0.68	-0.12	-0.57	inactive
RENBP (renin binding protein)	0.08	-0.04	0.09	0.2	inactive
ADD3 (adducin 3)	0.16	0.01	0.14	0.32	inactive
CYP1B1-AS1 (CYP1B1 antisense RNA 1)	0.92	0.91	0.83	1.02	inactive
DLL3 (delta like canonical Notch ligand 3)	0.36	0.16	0.45	0.48	inactive
ECT2 (epithelial cell transforming 2)	-0.91	-0.72	-1.05	-0.96	inactive
NDC80 (NDC80 kinetochore complex component)	-1.19	-1.3	-1.08	-1.19	inactive

Next part, starting with the last 5 of the part before.
Gene	mean z-score	z-score, replicate A	z-score, replicate B	z-score, replicate C	call
ADD3 (adducin 3)	0.16	0.01	0.14	0.32	inactive
CYP1B1-AS1 (CYP1B1 antisense RNA 1)	0.92	0.91	0.83	1.02	inactive
DLL3 (delta like canonical Notch ligand 3)	0.36	0.16	0.45	0.48	inactive
ECT2 (epithelial cell transforming 2)	-0.91	-0.72	-1.05	-0.96	inactive
NDC80 (NDC80 kinetochore complex component)	-1.19	-1.3	-1.08	-1.19	inactive
NUFIP2 (nuclear FMR1 interacting protein 2)	-0.28	-0.37	-0.48	0.01	inactive
BID (BH3 interacting domain death agonist)	0.79	0.9	0.74	0.74	inactive
AUP1 (AUP1 lipid droplet regulating VLDL assembly factor)	0.43	0.61	0.1	0.59	inactive
USP5 (ubiquitin specific peptidase 5)	0.64	0.61	0.46	0.83	inactive
LOC400479 (retired record)	0.4	0.26	0.53	0.4	inactive
FAIM (Fas apoptotic inhibitory molecule)	0.3	0.26	0.26	0.37	inactive
SEPTIN3 (septin 3)	0.63	0.3	0.77	0.8	inactive
CLDN3 (claudin 3)	-0.26	0.03	-0.11	-0.71	inactive
TBX21 (T-box transcription factor 21)	-0.72	-0.72	-0.72	-0.72	inactive
MGAT5B	-1.48	-1.08	-2.06	-1.29	inactive
FAM216B (family with sequence similarity 216 member B)	0.25	0.44	0.31	0.01	inactive
AKR1C6P (aldo-keto reductase family 1 member C6, pseudogene)	-1.08	-1.04	-1.32	-0.87	inactive
TRAF6 (TNF receptor associated factor 6)	-1.12	-1.15	-1.14	-1.06	inactive
APLNR (apelin receptor)	-0.06	0.2	-0.34	-0.05	inactive
C14orf39 (chromosome 14 open reading frame 39)	0.46	0.72	0.13	0.53	inactive
RALGAPA1 (Ral GTPase activating protein catalytic subunit alpha 1)	2.8	2.91	2.92	2.57	active
MIA (MIA SH3 domain containing)	1.05	1.06	1	1.09	inactive
